Test: Dyeing of cPU with classes of dyes, depth of shade (K/S) by reflectance
Format: physicochemical
Conditions: liquor ratio 100:1, 10% owf
[1] = no special dyeing condition printed, 65° C.
[2] = with salt (20 g/l), 65° C. 45 minutes
[3] = without salt, 65° C. 45 minutes

C.I. Reactive Blue 163
K/S (depth of shade) cPU [1]: 0.0345

C.I. Basic Blue 45
K/S (depth of shade) cPU [1]: 6.7500

CCN(CC)c1ccc(N=Nc2c(C#N)cc([N+](=O)[O-])cc2C#N)c(NC(C)=O)c1 [C.I. Disperse Blue 165]
K/S (depth of shade) cPU [1]: 5.1600

C.I. Disperse Blue 172
K/S (depth of shade) cPU [1]: 1.1467

C.I. Reactive Blue 109
K/S (depth of shade) cPU [1]: 0.0353

C.I. Basic Blue 62
K/S (depth of shade) cPU [1]: 10.821

C.I. Acid Blue 61
K/S (depth of shade) cPU (dyebath pH = 2.5, 65° C.): 0.6457
K/S (depth of shade) cPU (dyebath pH = 3.3, 65° C.): 0.2492
K/S (depth of shade) cPU (dyebath pH = 6.0, 65° C.): 0.2057

CCOc1ccc(Nc2ccc(C(=C3C=CC(=[N+](CC)Cc4cccc(S(=O)(=O)[O-])c4)C=C3)c3ccc(N(CC)Cc4cccc(S(=O)(=O)[O-])c4)cc3)cc2)cc1.[Na+] [C.I. Acid Blue 83]
K/S (depth of shade) cPU (dyebath pH = 2.5, 65° C.): 4.2588
K/S (depth of shade) cPU (dyebath pH = 3.3, 65° C.): 0.8807
K/S (depth of shade) cPU (dyebath pH = 6.0, 65° C.): 0.9509

CCN(CCO)c1ccc(N=Nc2sc3cc(OC)ccc3[n+]2C)cc1.COS(=O)(=O)[O-] [C.I. Basic Blue 41]
K/S (depth of shade) cPU [1]: 11.805

C.I. Acid Blue 127
K/S (depth of shade) cPU (dyebath pH = 2.5, 65° C.): 0.4025
K/S (depth of shade) cPU (dyebath pH = 3.3, 65° C.): 0.7395
K/S (depth of shade) cPU (dyebath pH = 6.0, 65° C.): 0.1322

C.I. Reactive Blue 160
K/S (depth of shade) cPU [1]: 0.0285

C.I. Direct Blue 199
K/S (depth of shade) cPU [2]: 0.0313
K/S (depth of shade) cPU [3]: 0.0389

Cc1cc(-c2ccc(N=Nc3c(S(=O)(=O)[O-])cc4cc(S(=O)(=O)[O-])cc(O)c4c3O)c(C)c2)ccc1N=Nc1c(S(=O)(=O)[O-])cc2cc(S(=O)(=O)[O-])cc(O)c2c1O.[Na+].[Na+].[Na+].[Na+] [C.I. Direct Blue 25]
K/S (depth of shade) cPU [2]: 0.0360
K/S (depth of shade) cPU [3]: 0.0286
